The results in this text go back to patent publication US5093475A (priority 1989, dated 1992).

This data set relates to 791 mAb. In words: Efficiency of conjugation with RTA (percent substitution by SDS-PAGE and densitometry). Particulars: 4.0- or 6.3-fold molar excess of RTA.

As to `CC1CCC(=N)S1.Cl` (centres unmarked) [methyl-2IT, 5-Methyl-2-iminothiolane hydrochloride], the “% Subst. (RTA/mAb ratio of product divided by TNB/mAb ratio of modified antibody)” value stood at 82%.
Under `Cl.N=C1CCC(c2ccccc2)S1` (centres unmarked) [phenyl-2IT, 5-Phenyl-2-iminothiolane hydrochloride] stands 47%.
